Results of unrelated studies side by side (data: NIAID ChemDB).

Common to all: growth or infection tests; organism: Coxsackie virus; cells: HeLa; endpoint: EC50

Conditions beyond the fields shown may differ between rows. An empty or dashed field is not shown. ECn: concentration that inhibits the pathogen or its effect by n%.

compound,strain or isolate,method,result
CSS[C@@]12CC3=COC=CC(OC(C)=O)C3N1C(=O)[C@]1(SSC)CC3=COC=CC(OC(C)=O)C3N1C2=O,TYPE A21,-,0.07 µg/mL
Nc1ncnc2c1ncn2[C@@H]1C=C(CO)[C@@H](O)[C@H]1O,TYPE B4,cytopathic effect,>10 µg/mL
Nc1ncnc2c1ncn2C[C@@H](O)[C@H](O)C(=O)O,TYPE B4,cytopathic effect,>400 µg/mL
OCCOC(CO)n1cnc2cc(Cl)c(Cl)cc21,TYPE B4,cytopathic effect,>200 µg/mL
Nc1nc(N)c2nnn(C[C@H]3CC[C@@H](CO)C3)c2n1,TYPE B4,cytopathic effect,>200 µg/mL
Nc1nccc2c1ncn2[C@@H]1C[C@H](CO)[C@@H](O)[C@H]1O,TYPE B4,cytopathic effect,>400 µg/mL
Nc1nccc2c1ncn2[C@@H]1O[C@H](CO)[C@@H](O)[C@H]1O,TYPE B4,cytopathic effect,≥40 µg/mL
Nc1nccc2c1ncn2[C@@H]1C[C@H](CO)[C@@H](O)[C@H]1O,TYPE B4,cytopathic effect,>400 µg/mL
Cc1cc(Cl)c([N+](=O)[O-])c(N2CC[N+]3(CC2)CC[N+]2(CCN(c4nc(C)cc(Cl)c4[N+](=O)[O-])CC2)CC3)n1,B3,cytopathic effect,>70 µg/mL
Nc1nc2c(ncn2C[C@H]2CC[C@@H](CO)C2)c(=O)[nH]1,TYPE B4,cytopathic effect,>200 µg/mL
O[C@@H]1[C@@H](OCc2ccccc2)[C@@H](COCc2ccccc2)O[C@H]1n1cnc2cc(Cl)c(Cl)cc21,TYPE B4,cytopathic effect,>10 µg/mL
Cc1cn([C@@H]2C[C@H](CO)[C@@H](O)C2)c(=O)[nH]c1=O,TYPE B4,cytopathic effect,>100 µg/mL
OC[C@H]1O[C@@H](n2cnc3cc(Cl)c(Cl)cc32)[C@H](O)[C@H]1O,TYPE B4,cytopathic effect,>10 µg/mL
Nc1ncnc2c1ncn2[C@@H]1C[C@H](CO)[C@@H](O)C1,TYPE B4,cytopathic effect,>100 µg/mL
Nc1ncnc2c1ncn2C[C@H](O)CO,TYPE B4,cytopathic effect,>400 µg/mL
O=c1[nH]c(=O)n([C@H]2C[C@H](O)[C@@H](CO)O2)cc1/C=C/Br,TYPE B4,cytopathic effect,>400 µg/mL
NC(=O)c1ncn([C@@H]2O[C@H](CO)[C@@H](O)[C@H]2O)c1C#CCCO,TYPE B4,cytopathic effect,>200 µg/mL
Nc1nccc2c1ncn2[C@@H]1C[C@H](CO)[C@@H](O)[C@H]1O,TYPE B4,cytopathic effect,>400 µg/mL
O=C1N2C3C(=COC=CC3O)C[C@]23SSSS[C@]12CC1=COC=CC(O)C1N2C3=O,TYPE A21,-,0.0001 µg/mL
Nc1nccc2c1ncn2[C@@H]1O[C@H](CO)[C@@H](O)[C@H]1O,TYPE B4,cytopathic effect,≥40 µg/mL
Nc1ncnc2c1ncn2[C@H]1[C@H](O)[C@H](O)[C@]2(CO)O[C@H]12,TYPE B4,cytopathic effect,>10 µg/mL
NC(=O)c1ccnc([C@@H]2O[C@H](CO)[C@@H](O)[C@H]2O)c1,TYPE B4,cytopathic effect,>400 µg/mL
O=[N+]([O-])c1c(Cl)ncnc1NN1CC[N+]2(CC1)CC[N+]1(CCN(Nc3ncnc(Cl)c3[N+](=O)[O-])CC1)CC2,B3,cytopathic effect,>70 µg/mL
O=C1C2CC3=COC=CC(O)C3N2C(=O)C2=CC3=COC=CC(O)C3N12,TYPE A21,-,0.00009 µg/mL
C[N+]1(CC[N+]2(C)CCN(c3ncnc(Cl)c3[N+](=O)[O-])CC2)CCN(c2ncnc(Cl)c2[N+](=O)[O-])CC1,B3,cytopathic effect,>70 µg/mL
NC(=O)c1ncn([C@@H]2O[C@H](CO)[C@@H](O)[C@H]2O)n1,TYPE B1,plaque count,>100 µg/mL
NC(=O)c1csc([C@@H]2O[C@H](CO)[C@@H](O)[C@H]2O)n1,TYPE B1/HA201468,cytopathic effect,130 µg/mL
Nc1ncnc2c1ncn2C[C@H](O)CO,TYPE B4,cytopathic effect,>400 µg/mL
CN1C(=O)[C@]23CC4=CC=C[C@H](O)[C@H]4N2C(=O)[C@@]1(CO)SS3,TYPE A21,-,0.003 µg/mL
NC(=O)c1ncn([C@@H]2O[C@H](CO)[C@@H](O)[C@H]2O)n1,TYPE B4,cytopathic effect,20 µg/mL
C[C@H]1C[C@@H](n2cnc3c(N)ncnc32)[C@H](O)[C@@H]1O,TYPE B4,cytopathic effect,>200 µg/mL
O=c1[nH]cnc2c1ncn2[C@@H]1C=C(CO)[C@@H](O)[C@H]1O,TYPE B4,cytopathic effect,>400 µg/mL
OC[C@H]1O[C@@H](n2cnc3cc(Cl)c(Cl)cc32)[C@@H](O)[C@H]1O,TYPE B4,cytopathic effect,>100 µg/mL
Cc1cn([C@H]2C[C@H](O)[C@@H](CO)[C@@H]2C)c(=O)[nH]c1=O,TYPE B4,cytopathic effect,>400 µg/mL
CN=C1NC(=O)C(Cc2c[nH]c3ccccc23)S1,TYPE B1,plaque count,100 µg/mL
CCOC(=O)C(CCSC[C@H]1O[C@@H](n2ccc3c(N)ncnc32)[C@H](O)[C@@H]1O)NC(=O)COC,TYPE B4,cytopathic effect,150 µg/mL
Nc1ncnc2c1ccn2[C@@H]1O[C@H](CO)[C@@H](O)[C@H]1O,TYPE B4,cytopathic effect,0.07 µg/mL
C#Cc1c(C(N)=O)ncn1[C@@H]1O[C@H](CO)[C@@H](O)[C@H]1O,TYPE B4,cytopathic effect,2 µg/mL
Nc1nccc2c1ncn2[C@@H]1C=C[C@@H](O)[C@H]1O,TYPE B4,cytopathic effect,>400 µg/mL
O[C@H]1[C@@H](O)COC(n2cnc3cc(Cl)c(Cl)cc32)[C@@H]1O,TYPE B4,cytopathic effect,>200 µg/mL
O=[N+]([O-])c1ccc(N2CC[N+]3(CC2)CC[N+]2(CCN(c4ccc([N+](=O)[O-])cc4[N+](=O)[O-])CC2)CC3)c([N+](=O)[O-])c1,B3,cytopathic effect,>70 µg/mL
O=C1C=COC=C2C[C@@]34SS[C@]5(CC6=COC=CC(O)C6N5C3=O)C(=O)N4C12,TYPE A21,-,0.06 µg/mL
Nc1ncnc2c1ccn2[C@@H]1O[C@H](CO)[C@H](O)[C@H]1O,TYPE B4,cytopathic effect,≥4 µg/mL